Literature values as cited in PMC1824706.

Sequences of proteins named here, by UniProt entry; tags and fusion partners are left off. Residues count along the entry.
UniProt P13423, 30-196: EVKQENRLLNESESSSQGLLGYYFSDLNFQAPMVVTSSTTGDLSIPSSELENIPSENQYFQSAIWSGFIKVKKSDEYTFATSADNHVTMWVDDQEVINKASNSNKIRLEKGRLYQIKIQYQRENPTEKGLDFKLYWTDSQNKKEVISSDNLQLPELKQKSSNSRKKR

Target: Protective antigen (Bacillus anthracis) (UniProt P13423)

## Anthrax toxin receptor 1 I domain (from UniProt Q9H6X2)
  Kd: 0.13 µM
